Literature values as cited in publication PMC10173076 (Molecular Therapy Oncolytics, 2023).

Tested on: subcutaneous non-small cell lung tumors
Details: AdSSTR2-treated mice; 48 h post-RP; ref 11 (Rogers et al.)

For ^111In-DTPA-D- Phe1-octreotide, the tumor uptake is given as 1.3% ± 0.7%.
